This note sets out measurements from paper PMC10281000 (Chembiochem : a European journal of chemical biology, 2021).

This data set concerns O=C(O)CCl. Kind of data set: purified protein. As to conditions: pH 9.5; 25.0 °C.

What is called Km is the concentration of substrate that gives half-maximal velocity. One may read the kcat/Km as the turnover number divided by the Michaelis constant. Turning to “RSc1362 (Ralstonia pseudosolanacearum GMI1000)”, the Km is 60 ± 20 µM and the specificity constant (kcat/Km) was 140000 M⁻¹ s⁻¹.
